# Mutational interference map of HIV-1 RNA dimerization

Source: Ye et al. 2022 (doi:10.1038/s41594-022-00746-2), supplementary data.

The 5' region of HIV-1 NL4-3 RNA (positions 1-437):
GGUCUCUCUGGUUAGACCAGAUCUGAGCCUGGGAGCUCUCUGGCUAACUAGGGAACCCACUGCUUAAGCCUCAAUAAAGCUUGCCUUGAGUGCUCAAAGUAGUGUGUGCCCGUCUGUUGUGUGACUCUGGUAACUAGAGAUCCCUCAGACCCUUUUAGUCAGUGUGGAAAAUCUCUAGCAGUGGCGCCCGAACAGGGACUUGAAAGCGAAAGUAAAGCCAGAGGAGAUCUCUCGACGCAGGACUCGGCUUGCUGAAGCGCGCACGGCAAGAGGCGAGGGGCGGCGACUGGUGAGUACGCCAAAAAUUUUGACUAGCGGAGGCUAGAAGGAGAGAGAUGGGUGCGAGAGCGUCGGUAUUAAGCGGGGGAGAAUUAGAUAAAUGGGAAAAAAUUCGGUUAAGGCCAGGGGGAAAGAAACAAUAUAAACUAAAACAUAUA

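Mutant RNA libraries with 1G, 2G or 3G starts, with or without cap, were folded at 37 °C for 30 min. High salt was 300 mM KCl and 5 mM MgCl2, low salt 40 mM KCl and 0.1 mM MgCl2; monomer and dimer were parted on a native gel. Kdimer compares mutation frequencies in monomer and dimer, corrected for sequencing errors.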

Values are log2 Kdimer, the median over the changes at each position: higher means that changes there hinder dimer formation, below 0 that they favour it.
One numbering serves 1G, 2G and 3G.
A position is written with its base.

position	2G uncapped low-salt	1G uncapped high-salt
C238	1.81	2.78
A239	-0.32	-0.15
G240	-0.12	-0.01
G241	-0.53	-0.15
A242	1.96	1.38
C243	1.07	0.98
U244	2.00	1.06
C245	1.79	1.39
G246	2.02	1.49
G247	-1.28	-0.56
C248	0.61	0.99
U249	1.94	1.72
U250	2.90	2.76
G251	6.08	6.76
C252	3.12	4.65
U253	2.55	2.44
G254	2.17	2.03
A255	-0.32	-0.26
A256	1.85	1.18
G257	1.07	2.95
C258	3.55	4.50
G259	3.82	5.53
C260	3.83	5.15
G261	3.73	6.73
C262	3.85	4.31
A263	1.04	0.34
C264	3.36	2.46
G265	3.25	3.20
G266	3.81	6.49
C267	3.05	4.48
A268	3.15	3.02
A269	1.81	1.61
G270	0.95	1.05
A271	-0.23	-0.10
G272	-0.50	-0.19
G273	-0.67	-0.50
C274	1.32	0.37
G275	2.60	2.60
A276	3.03	3.61
G277	2.28	2.44
G278	0.40	0.43
G279	-0.21	0.19
G280	-0.66	-0.22
C281	0.47	0.68
G282	1.07	0.71
G283	-0.13	0.09
C284	0.61	0.59
G285	1.41	1.22
A286	0.49	0.48
C287	-0.64	-0.05
U288	-0.12	-0.04
G289	0.23	0.31
G290	0.39	0.11
U291	-0.32	0.12
G292	-0.38	0.01
A293	-0.30	0.07
G294	-0.74	-0.20
U295	-0.63	-0.10
A296	0.19	0.83
C297	0.02	0.20
G298	-0.49	-0.50
C299	-0.58	-0.09
C300	-0.53	-0.14
A301	0.37	0.44
A302	-0.20	0.02
A303	0.09	0.03
A304	0.12	0.07

A selection of 7 entries from above:

- G277: 2G uncapped low-salt 2.28; 1G uncapped high-salt 2.44
- G246: 2G uncapped low-salt 2.02; 1G uncapped high-salt 1.49
- G251: 2G uncapped low-salt 6.08; 1G uncapped high-salt 6.76
- A263: 2G uncapped low-salt 1.04; 1G uncapped high-salt 0.34
- G289: 2G uncapped low-salt 0.23; 1G uncapped high-salt 0.31
- C243: 2G uncapped low-salt 1.07; 1G uncapped high-salt 0.98
- A255: 2G uncapped low-salt -0.32; 1G uncapped high-salt -0.26